Results of unrelated studies side by side (data: NIAID ChemDB).

Common to all: whole-cell or culture tests; agent: Respiratory syncytial virus; cells: HeLa; measure: EC50

Lines come from different laboratories, so protocols vary. ECn: concentration that inhibits the pathogen or its effect by n%.

{"SMILES": "O=c1[nH]c(=O)n([C@H]2C[C@H](O)[C@@H](CO)O2)cc1/C=C/Br", "method": "cytopathic effect", "result": ">400 µg/mL"}
{"SMILES": "NC(=O)c1ncn([C@@H]2O[C@H](CO)[C@@H](O)[C@H]2O)c1O", "strain or isolate": "TYPE A/LONG", "method": "plaque count", "result": "1.6 µg/mL"}
{"SMILES": "c1ccc2c(c1)CSSC2", "strain or isolate": "clone 5 (RD3-0028-resistant)", "method": "cytopathic effect", "result": ">244.4 µM"}
{"SMILES": "Nc1cc2[nH]cnc2c(=O)[nH]1", "strain or isolate": "58-17", "method": "cytopathic effect", "result": "2 µg/mL"}
{"SMILES": "C#Cc1c(C(N)=O)ncn1[C@@H]1O[C@H](CO)[C@@H](O)[C@H]1O", "strain or isolate": "TYPE A/NS-100", "method": "plaque count", "result": "0.06 µg/mL"}
{"SMILES": "NC(=O)c1[nH]nc([C@@H]2O[C@H](CO)[C@@H](O)[C@H]2O)c1O", "strain or isolate": "58-13", "method": "cytopathic effect", "result": "0.08 µg/mL"}
{"SMILES": "CC(C)CCCC(C)C1CCC2C3CC=C4CC(OC(=O)Nc5ccc(S(=O)(=O)O)c6ccccc56)CCC4(C)C3CCC12C", "method": "cytopathic effect", "result": "6.5 µM"}
{"SMILES": "C[C@H](O)[C@@H]1C[C@H](CCn2nnc3c(N)ncnc32)C1(C)C", "method": "cytopathic effect", "result": ">200 µg/mL"}
{"SMILES": "Nc1ccn([C@@H]2C[C@H](CO)[C@@H](O)[C@H]2O)c(=O)n1", "strain or isolate": "LONG", "method": "cytopathic effect", "result": ">50 µg/mL"}
{"SMILES": "CC(C)CCCC(C)C1CCC2C3CC=C4CC(O)CCC4(C)C3CCC12C", "method": "cytopathic effect", "result": ">200 µM"}
{"SMILES": "Nc1ncnc2c1ncn2C[C@@H](CO)OCP(=O)(O)O", "strain or isolate": "LONG", "method": "cytopathic effect", "result": ">125 µg/mL"}
{"SMILES": "C[C@H](O)[C@@H]1C[C@H](Cn2cnc3c(=O)[nH]cnc32)C1(C)C", "method": "cytopathic effect", "result": ">400 µg/mL"}
{"SMILES": "Nc1ccc(S(=O)(=O)O)c2cc(S(=O)(=O)O)cc(O)c12", "method": "cytopathic effect", "result": ">200 µM"}
{"SMILES": "C[C@H](O)[C@@H]1C[C@H](CCn2cnc3c(=O)[nH]cnc32)C1(C)C", "method": "cytopathic effect", "result": "3 µg/mL"}
{"SMILES": "CC(C)CCCC(C)C1CCC2C3CC=C4CC(OC(=O)Cl)CCC4(C)C3CCC12C", "method": "cytopathic effect", "result": ">200 µM"}

Repeating the final 2 entries:

C[C@H](O)[C@@H]1C[C@H](CCn2cnc3c(=O)[nH]cnc32)C1(C)C ; method: cytopathic effect ; result: 3 µg/mL
CC(C)CCCC(C)C1CCC2C3CC=C4CC(OC(=O)Cl)CCC4(C)C3CCC12C ; method: cytopathic effect ; result: >200 µM